Results reported in patent publication US20130071428A1.

Key:
[1] = target: F I G I T E L K K L E S K I N K Z Z O (Clostridium tetani)
[2] = target: F I G I T E L K K L E S K I N Z Z O (Clostridium tetani)
[3] = target: peptide β-32 (Clostridium tetani)
[4] = target: F I G I T E L K K L E S K I N K V Z Z O (Clostridium tetani)
[5] = target: F I G I T E L K K L E S K I N K V F Z Z O (Clostridium tetani)
[6] = target: F I G I T E L K K L E S K I Z Z O (Clostridium tetani)
[7] = target: peptide β-32 (Clostridium tetani); assay: Tettox ELISA; same synthesis number reprinted under 'Without linker'
[8] = target: peptide β-32 (Clostridium tetani); assay: Tettox ELISA, biotinylated peptide on streptavidin plate

## TetaQuin® (antibody)
[1]
  OD (column without a head): 0.65 OD
[2]
  OD (column without a head): 0.64 OD
[3]
  OD (column without a head): 1.16 OD
[4]
  OD (column without a head): 0.68 OD
[5]
  OD (column without a head): 1.16 OD
[6]
  OD (column without a head): 0.79 OD
[7]
  OD: 1.3 OD
[8]
  OD: 1.3 OD
